Pooled drug test results. Numbers come from NIAID ChemDB, via PubChem.

All rows: tests in culture

Inhibition is in % at the dose shown (toxicity tests: loss of growth or viability). An empty or dashed field is not shown. Rows are shuffled and stem from different studies. ECn is the concentration giving n% inhibition of infection, replication or growth.

compound	strain	agent	endpoint	dose	cell line	result
CC1(CO)CCC(Cn2cnc3c(N)nc(N)nc32)C1(C)C	JAPAN/305/57	Influenza A virus (H2N2)	EC50		MDCK	>50 µg/mL
CCCC(CCC)C(NC(C)=O)C1C(N=C(N)N)CC(C(=O)O)C1O	H5N1 A/gull/PA/4175/83	Influenza A virus	EC50		MDCK	0.02 µM
CC1(CO)CCC(Cn2nnc3c(Cl)nc(N)nc32)C1(C)C	JAPAN/305/57	Influenza A virus (H2N2)	EC50		MDCK	>50 µg/mL
CCC(CC)O[C@@H]1C=C(C(=O)O)C[C@H](N)[C@H]1NC(C)=O	H3N2 TOKYO/3/67	Influenza A virus	EC50		MDCK	0.034 µM
CC1(CO)CCC(Cn2nnc3c(N)ncnc32)C1(C)C	JAPAN/305/57	Influenza A virus (H2N2)	EC50		MDCK	>50 µg/mL
NC12CC3CC(CC(C3)C1)C2	A2/ADACHI	Influenza A virus (H2N2)	inhibition	46.8 µg/mL	CEF	98.2%
CN1CCc2cc3c(cc2C(=O)Cc2ccc4c(c2C1)OCO4)OCO3	A/Weybridge	Influenza A virus	EC50		CEF	>60 µM
CC1(CO)CCC(Cc2nc3ncnc(N)c3[nH]2)C1(C)C	JAPAN/305/57	Influenza A virus (H2N2)	EC50		MDCK	>250 µg/mL
C#C[C@H](O)C1=C[C@@H](n2cnc3c(N)ncnc32)[C@H](O)[C@@H]1O	H2N2 JAPAN 57	Influenza A virus	EC50		MDCK	>50 µg/mL
CCCCCCCCCCOc1ccc(/C(C)=N/N=C(/N)SC)cc1	A2/ADACHI	Influenza A (H3N2)	EC50		Chorioallantoic membrane	200 µg/mL
CCCC(CCC)C(NC(C)=O)C1CC(C(=O)O)CC1N=C(N)N	H5N1 A/gull/PA/4175/83	Influenza A virus	EC50		MDCK	0.02 µM
COc1ncnc2c1ncn2[C@@H]1O[C@H](CO)[C@@H](O)[C@@H]1O	NWS	Influenza A virus (H1N9)	EC50			>100 µM
[N-]=C=Nc1nncs1	H7N1 A/Rostock	Influenza A virus	EC50		MDCK	<10 µg/mL
C=C[C@@H](O)C1=C[C@@H](n2cnc3c(N)ncnc32)[C@H](O)[C@@H]1O	H2N2 JAPAN 57	Influenza A virus	EC50		MDCK	>50 µg/mL
CC1(CO)CCC(Cn2nnc3c(N)nc(N)nc32)C1(C)C	JAPAN/305/57	Influenza A virus (H2N2)	EC50		MDCK	>50 µg/mL
CCC(CC)[C@H](NC(C)=O)[C@@H]1[C@H](O)[C@@H](C(=O)O)C[C@H]1N=C(N)N	H5N1 A/gull/PA/4175/83	Influenza A virus	EC50		MDCK	0.02 µM
CC(=O)N[C@H]1[C@H]([C@H](O)[C@H](O)CO)OC(C(=O)O)=C[C@@H]1N=C(N)N	H7N2 A/turkey/England/192-329/79	Influenza A virus	EC90		MDCK	≥1 µM
C=C[C@H](O)C1=C[C@@H](n2cnc3c(N)ncnc32)[C@H](O)[C@@H]1O	H2N2 X31	Influenza A virus	EC50		MDCK	>250 µg/mL

A second listing of 2 rows from above:

| compound | strain | agent | endpoint | dose | cell line | result |
|---|---|---|---|---|---|---|
| C#C[C@H](O)C1=C[C@@H](n2cnc3c(N)ncnc32)[C@H](O)[C@@H]1O | H2N2 JAPAN 57 | Influenza A virus | EC50 |  | MDCK | >50 µg/mL |
| CC(=O)N[C@H]1[C@H]([C@H](O)[C@H](O)CO)OC(C(=O)O)=C[C@@H]1N=C(N)N | H7N2 A/turkey/England/192-329/79 | Influenza A virus | EC90 |  | MDCK | ≥1 µM |